{
  "source": "patent US6686393B1",
  "about": "“Pharmaceutical compositions having antiviral activity against human cytomegalovirus” (Murdock International Corporation, priority 1990, dated 2004)",
  "key": {"[1]": {"system": "murine cytomegalovirus, strain Smith MSGV", "assay": "Antiviral test (plaque reduction) versus murine cytomegalovirus, strain Smith MSGV, in 3T3 cells", "assay_type": "cell-based", "conditions": "Example 8"}, "MRC-5 cells": {"system": "MRC-5 cells", "assay": "Cytotoxicity (CD50) in the MRC-5 cells of the plaque reduction tests"}, "[2]": {"system": "human cytomegalovirus (HCMV), strain AD-169", "assay": "Antiviral test (plaque reduction) versus HCMV, strain AD-169, in MRC-5 cells", "assay_type": "cell-based", "conditions": "Example 1; for Number of Plaques: average of two wells"}, "[3]": {"system": "HCMV, strain C8805-37 (DHPG-resistant)", "conditions": "Example 3"}, "[4]": {"system": "human cytomegalovirus (HCMV) strain AD-169", "assay": "Antiviral effect of different exposure times, HCMV strain AD-169 (plaque reduction)", "assay_type": "cell-based", "conditions": "224 μg/ml left on the cells for short periods of time"}, "3T3 cells": {"system": "3T3 cells", "assay": "Cytotoxicity (CD50) in 3T3 cells of the MCMV plaque reduction test", "conditions": "Example 8"}},
  "note": "Like-named read-outs stand apart in the source and are kept apart here.",
  "data": [
    {"substance": "ganciclovir", "values": [
      {"measurement": "% Reduction", "setting": "[1]; 0.32 μg/ml (row r14)", "value": 0, "unit": "%"},
      {"measurement": "Number of Plaques", "setting": "[1]; 0.32 μg/ml (row r14)", "value": 16},
      {"measurement": "% Reduction", "setting": "[1]; 1.0 μg/ml", "value": 42, "unit": "%"},
      {"measurement": "Number of Plaques", "setting": "[1]; 1.0 μg/ml", "value": 13},
      {"measurement": "% Reduction", "setting": "[1]; 3.2 μg/ml", "value": 72, "unit": "%"},
      {"measurement": "Number of Plaques", "setting": "[1]; 3.2 μg/ml", "value": 6},
      {"measurement": "% Reduction", "setting": "[1]; 10 μg/ml", "value": 96, "unit": "%"},
      {"measurement": "Number of Plaques", "setting": "[1]; 10 μg/ml", "value": 1},
      {"measurement": "% Reduction", "setting": "[1]; 31.6 μg/ml", "value": 100, "unit": "%"},
      {"measurement": "Number of Plaques", "setting": "[1]; 31.6 μg/ml", "value": 0},
      {"measurement": "% Reduction", "setting": "[1]; 100 μg/ml", "value": 100, "unit": "%"},
      {"measurement": "Number of Plaques", "setting": "[1]; 100 μg/ml", "value": 0},
      {"measurement": "CD50", "setting": "MRC-5 cells; Example 3, cells exposed 4 days", "value": ">1000", "unit": "µg/mL"},
      {"measurement": "CD50", "setting": "MRC-5 cells; Table 10 summary, DHPG resistant HCMV test", "value": "(>1000) μg/ml"},
      {"measurement": "% Inhibition", "setting": "[2]; 250 μg/ml", "value": 100, "unit": "%"},
      {"measurement": "Number of Plaques", "setting": "[2]; 250 μg/ml", "value": 0},
      {"measurement": "% Inhibition", "setting": "[2]; 500 μg/ml", "value": 100, "unit": "%"},
      {"measurement": "Number of Plaques", "setting": "[2]; 500 μg/ml", "value": 0},
      {"measurement": "Percent Inhibition Compared to Controls", "setting": "[3]; 0.32 μg/ml", "value": 0, "unit": "%"},
      {"measurement": "Percent Inhibition Compared to Controls", "setting": "[3]; 1.0 μg/ml", "value": 21, "unit": "%"},
      {"measurement": "Percent Inhibition Compared to Controls", "setting": "[3]; 3.2 μg/ml", "value": 26, "unit": "%"},
      {"measurement": "Percent Inhibition Compared to Controls", "setting": "[3]; 10.0 μg/ml, cells exposed 4 days", "value": 51, "unit": "%"},
      {"measurement": "Anti-HCMV activity", "setting": "[4]", "value": "essentially no anti-HCMV activity"},
      {"measurement": "CD50", "setting": "3T3 cells", "value": ">100", "unit": "µg/mL"}
    ]}
  ]
}
